# PubChem BioAssay AID720533 (National Center for Advancing Translational Sciences (NCATS), 2013)
# This is a selection; strong and weak results do not stand in their true shares. Records with an inconclusive call do not appear. Active and inactive are the calls of the source. Calls come from the whole dose curve; tested in HEK293 cells.
# Test: qHTS for Inhibitors of binding or entry into cells for Lassa Virus
# Settings: Lassa virus pseudotyped entry inhibition, cell-based qHTS
# % is set by controls: 0 for no effect and ±100 for the full control effect.
compound,measurement,setting,value
Cc1cccc([N+](=O)[O-])c1[N+](=O)[O-],"activity change, negative = inhibition",at 107 µM (top of the series),inactive: -18.8%
CCOP(=O)(CC)Oc1ccc([N+](=O)[O-])cc1 (stereo not given),"activity change, negative = inhibition",at 49.2 µM (top of the series),inactive: -1.21%
CCN(CCCl)Cc1ccccc1C,"activity change, negative = inhibition",at 49.2 µM (top of the series),inactive: -7.52%
C/C1=C2N=C(/C=C3N=C(/C(C)=C4\[N-][C@@](C)([C@@H]5N=C1[C@](C)(CCC(=O)NC[C@@H](C)OP(=O)([O-])O[C@H]1[C@@H](O)[C@@H](n6cnc7cc(C)c(C)cc76)O[C@@H]1CO)[C@H]5CC(N)=O)[C@@](C)(CC(N)=O)[C@@H]4CCC(N)=O)[C@@](C)(CC(N)=O)[C@@H]\3CCC(N)=O)C(C)(C)[C@@H]/2CCC(N)=O.[C-]#N.[Co+3],"activity change, negative = inhibition",at 17.8 µM (top of the series),inactive: -16.4%
CC(C)OP(=O)(F)OC(C)C,"activity change, negative = inhibition",at 49.2 µM (top of the series),inactive: 9.89%
OCCSCCO,"activity change, negative = inhibition",at 49.2 µM (top of the series),inactive: -9.8%
CP1(=O)OC(CCl)CC(CCl)O1 (stereo not given),"activity change, negative = inhibition",at 49.2 µM (top of the series),inactive: -48%
O=C(O)C1(O)c2ccccc2-c2ccccc21,"activity change, negative = inhibition",at 49.2 µM (top of the series),inactive: 4.54%
O=C(O)C(O)(c1ccccc1)c1ccccc1,"activity change, negative = inhibition",at 49.2 µM (top of the series),inactive: 4.3%
O=[N+]([O-])[O-].[NH4+],"activity change, negative = inhibition",at 49.2 µM (top of the series),inactive: 5.5%
CN(C)CCS,"activity change, negative = inhibition",at 49.2 µM (top of the series),inactive: -8.08%
CC(C)N(CCCl)C(C)C,"activity change, negative = inhibition",at 49.2 µM (top of the series),inactive: -2.33%
O=[N+]([O-])OCC(CO[N+](=O)[O-])(CO[N+](=O)[O-])CO[N+](=O)[O-],"activity change, negative = inhibition",at 49.2 µM (top of the series),inactive: -14.7%
O=[N+]([O-])c1cccc([N+](=O)[O-])c1,"activity change, negative = inhibition",at 49.2 µM (top of the series),inactive: 1.16%
same,"activity change, negative = inhibition",at 107 µM (top of the series),inactive: 8.75%
